“And” between values parts separate entries of the source, which are not always exact repeats. Identical values can stand only once.
System: MRC-5 normal human lung fibroblasts
Test: MTT toxicity assay
Type: cell-based
Settings: for Therapeutic Index E. coli: IC50 value (MRC-5) divided by MIC value against E. coli; for Therapeutic Index P. aeruginosa: IC50 value (MRC-5) divided by MIC value against P. aeruginosa; for Therapeutic Index S. aureus: IC50 value (MRC-5) divided by MIC value against S. aureus
Experimental: The toxicity of the compounds was measured using an MTT (3-(4,5-dimethylthiazol-2-yl)-2,5-diphenyltetrazolium bromide) (Sigma Aldrich, St Louis, MO, USA) colorimetric assay against normal human lung fibroblasts MRC-5 cells. The cells were cultured in minimal essential medium (MEM; Sigma Aldrich, St Louis, MO, USA) containing 10% foetal bovine serum (FBS). The cells were maintained at 37 °C in 5% CO2 as an adherent monolayer and was passaged upon reaching confluence by standard cell culture techniques. MRC-5 cells were seeded at 5000 cells/well in 96-well plates to ensure full confluence (quiescence) and left overnight to adhere to the plate wells. The adherent cells were treated with 1–500 µM of compounds by dissolving in DMSO and serially diluting with media. The final concentration of DMSO was 0.5% (v/v). After 72 h drug incubation, […] stock MTT solution (5 mg/mL) was added and the cells were incubated for another 3.5–4 h. MTT solution-containing media was carefully aspirated without displacing the purple crystals from the bottom and […] acid-isopropanol was added to all wells and mixed slowly by shaking with an orbital shaker to dissolve the dark blue crystals. The metabolic activity was detected by spectrophotometric analysis by assessing the read absorbance (590/620 nm) on an EnSight plate reader (PerkinElmer, Waltham, MA, USA) and cell viability was expressed as a percentage of untreated control cells. The determination of IC50 values was performed using GraphPad Prism 6 (GraphPad, San Diego, CA, USA). Each experiment was performed in triplicate and was repeated in three independent experiments.

## CCCCCCCCS(=O)(=O)Nc1ccc(-c2ccccc2)cc1C(=O)C(=O)NCCCNC(=N)N.Cl [Compound 22a, N-(3-Guanidinopropyl)-2-(4-(octylsulfonamido)-[1,1’-biphenyl]-3-yl)-2-oxoacetamide hydrochloride]
  Therapeutic Index E. coli: 1.21
  Therapeutic Index P. aeruginosa: 1.21

## CCCCCCCCS(=O)(=O)Nc1ccc(-c2ccc(Cl)cc2)cc1C(=O)C(=O)NCCC[N+](C)(C)C.[I-] [Compound 15c, 3-(2-(4’-Chloro-4-(octylsulfonamido)-[1,1’-biphenyl]-3-yl)-2-oxoacetamido)-N,N,N-trimethylpropan-1-aminium iodide]
  Therapeutic Index P. aeruginosa: 1.53

## CCCCCCCCS(=O)(=O)Nc1ccc(-c2ccccc2)cc1C(=O)C(=O)NCCC[N+](C)(C)C.[I-] [Compound 15a, N,N,N-Trimethyl-3-(2-(4-(octylsulfonamido)-[1,1’-biphenyl]-3-yl)-2-oxoacetamido)propan-1-aminium iodide]
  Therapeutic Index E. coli: 1.59
  Therapeutic Index P. aeruginosa: 0.41
  Therapeutic Index S. aureus: 3.17

## CCCCCCCCS(=O)(=O)Nc1ccc(CCCC)cc1C(=O)C(=O)NCCCN(C)C.Cl [Compound 13e, 3-(2-(5-Butyl-2-(octylsulfonamido)phenyl)-2-oxoacetamido)-N,N-dimethylpropan-1-aminium chloride]
  Therapeutic Index S. aureus: 0.74

## CCCCCCCCS(=O)(=O)Nc1ccc(-c2ccc(F)cc2)cc1C(=O)C(=O)NCCCNC(=N)N.Cl [Compound 22b, 2-(4’-Fluoro-4-(octylsulfonamido)-[1,1’-biphenyl]-3-yl)-N-(3-guanidinopropyl)-2-oxoacetamide hydrochloride]
  Therapeutic Index E. coli: 4.75
  Therapeutic Index P. aeruginosa: 1.21

## CCCCCCCCS(=O)(=O)Nc1ccc(-c2ccc3ccccc3c2)cc1C(=O)C(=O)NCCCN(C)C.Cl [Compound 13d, N,N-Dimethyl-3-(2-(5-(naphthalen-2-yl)-2-(octylsulfonamido)phenyl)-2-oxoacetamido)propan-1-aminium chloride]
  Therapeutic Index S. aureus: 1.56–2.46 and 2.46

## CCCCCCCCS(=O)(=O)Nc1ccc(-c2ccccc2)cc1C(=O)C(=O)NCCCN(C)C.Cl [Compound 13a, N,N-Dimethyl-3-(2-(4-(octylsulfonamido)-[1,1’-biphenyl]-3-yl)-2-oxoacetamido)propan-1-aminium chloride]
  Therapeutic Index S. aureus: 1.56–2.46 and 1.56

## CCCCCCCCS(=O)(=O)Nc1ccc(-c2ccc3ccccc3c2)cc1C(=O)C(=O)NCCC[N+](C)(C)C.[I-] [Compound 15d, N,N,N-Trimethyl-3-(2-(5-(naphthalen-2-yl)-2-(octylsulfonamido)phenyl)-2-oxoacetamido)propan-1-aminium iodide]
  Therapeutic Index E. coli: 1.79
  Therapeutic Index P. aeruginosa: 0.45

## CCCCCCCCS(=O)(=O)Nc1ccc(-c2ccc3ccccc3c2)cc1C(=O)C(=O)NCCCNC(=N)N.Cl [Compound 22d, N-(3-Guanidinopropyl)-2-(5-(naphthalen-2-yl)-2-(octylsulfonamido)phenyl)-2-oxoacetamide hydrochloride]
  Therapeutic Index S. aureus: 6.19

## CCCCCCCCS(=O)(=O)Nc1ccc(CCCC)cc1C(=O)C(=O)NCCC[N+](C)(C)C.[I-] [Compound 15e, 3-(2-(5-Butyl-2-(octylsulfonamido)phenyl)-2-oxoacetamido)-N,N,N-trimethylpropan-1-aminium iodide]
  Therapeutic Index S. aureus: 6.31

## CCCCCCCCS(=O)(=O)Nc1ccc(-c2ccc(Cl)cc2)cc1C(=O)C(=O)NCCCN(C)C.Cl [Compound 13c, 3-(2-(4’-Chloro-4-(octylsulfonamido)-[1,1’-biphenyl]-3-yl)-2-oxoacetamido)-N,N-dimethylpropan-1-aminium chloride]
  Therapeutic Index S. aureus: 1.59

## CCCCCCCCS(=O)(=O)Nc1ccc(-c2ccc(Cl)cc2)cc1C(=O)C(=O)NCCCNC(=N)N.Cl [Compound 22c, 2-(4’-Chloro-4-(octylsulfonamido)-[1,1’-biphenyl]-3-yl)-N-(3-guanidinopropyl)-2-oxoacetamide hydrochloride]
  Therapeutic Index E. coli: 1.52
  Therapeutic Index P. aeruginosa: 0.38

## CCCCCCCCS(=O)(=O)Nc1ccc(-c2ccc(F)cc2)cc1C(=O)C(=O)NCCC[N+](C)(C)C.[I-] [Compound 15b, 3-(2-(4’-Fluoro-4-(octylsulfonamido)-[1,1’-biphenyl]-3-yl)-2-oxoacetamido)-N,N,N-trimethylpropan-1-aminium iodide]
  Therapeutic Index P. aeruginosa: 3.04
